# Kdimer by position in the HIV-1 leader RNA

Values reported by Ye et al. 2022 (doi:10.1038/s41594-022-00746-2).

The 5' region of HIV-1 NL4-3 RNA (positions 1-437):
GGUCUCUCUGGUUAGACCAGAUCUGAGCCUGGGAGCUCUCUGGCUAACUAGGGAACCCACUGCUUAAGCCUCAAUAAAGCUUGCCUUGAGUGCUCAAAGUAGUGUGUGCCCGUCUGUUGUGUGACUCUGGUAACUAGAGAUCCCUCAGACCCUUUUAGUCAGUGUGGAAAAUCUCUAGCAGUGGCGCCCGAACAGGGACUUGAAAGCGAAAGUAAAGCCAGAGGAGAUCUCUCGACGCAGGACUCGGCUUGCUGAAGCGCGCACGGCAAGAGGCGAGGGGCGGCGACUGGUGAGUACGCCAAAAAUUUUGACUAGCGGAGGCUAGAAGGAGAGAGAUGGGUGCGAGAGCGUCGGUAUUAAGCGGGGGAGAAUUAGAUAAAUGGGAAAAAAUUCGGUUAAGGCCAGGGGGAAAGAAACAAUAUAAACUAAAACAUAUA

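Mutant RNA libraries with 1G, 2G or 3G starts, with or without cap, were folded at 37 °C for 30 min. Monomer and dimer bands were cut from native gels after folding in high salt (300 mM KCl, 5 mM MgCl2) or low salt (40 mM KCl, 0.1 mM MgCl2). Kdimer compares mutation frequencies in monomer and dimer, corrected for sequencing errors.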

Values are log2 Kdimer, the median over the changes at each position: higher means that changes there hinder dimer formation, below 0 that they favour it.
One numbering serves 1G, 2G and 3G.
A position is written with its base where known.
Bases beyond 437 are not listed in the source.

{"position": "452", "domain": "none", "1G capped high-salt": -0.13, "1G capped low-salt": -0.02, "1G uncapped high-salt": -0.03, "1G uncapped low-salt": -0.06}
{"position": "453", "domain": "none", "1G capped high-salt": -0.20, "1G capped low-salt": 0.04, "1G uncapped high-salt": 0.06, "1G uncapped low-salt": 0.07}
{"position": "454", "domain": "none", "1G capped high-salt": -0.09, "1G capped low-salt": -0.09, "1G uncapped high-salt": 0.00, "1G uncapped low-salt": 0.09}
{"position": "455", "domain": "none", "1G capped high-salt": 0.02, "1G capped low-salt": -0.06, "1G uncapped high-salt": 0.03, "1G uncapped low-salt": 0.00}
{"position": "456", "domain": "none", "1G capped high-salt": 0.00, "1G capped low-salt": -0.07, "1G uncapped high-salt": 0.08, "1G uncapped low-salt": 0.12}
{"position": "457", "domain": "none", "1G capped high-salt": -0.16, "1G capped low-salt": 0.02, "1G uncapped high-salt": 0.02, "1G uncapped low-salt": 0.06}
{"position": "458", "domain": "none", "1G capped high-salt": 0.05, "1G capped low-salt": 0.01, "1G uncapped high-salt": 0.06, "1G uncapped low-salt": 0.00}
{"position": "459", "domain": "none", "1G capped high-salt": 0.04, "1G capped low-salt": -0.09, "1G uncapped high-salt": 0.02, "1G uncapped low-salt": 0.11}
{"position": "460", "domain": "none", "1G capped high-salt": -0.04, "1G capped low-salt": 0.06, "1G uncapped high-salt": 0.16, "1G uncapped low-salt": 0.04}
{"position": "461", "domain": "none", "1G capped high-salt": 0.03, "1G capped low-salt": 0.08, "1G uncapped high-salt": 0.04, "1G uncapped low-salt": 0.05}
{"position": "462", "domain": "none", "1G capped high-salt": 0.05, "1G capped low-salt": -0.01, "1G uncapped high-salt": 0.12, "1G uncapped low-salt": -0.01}
{"position": "463", "domain": "none", "1G capped high-salt": 0.08, "1G capped low-salt": 0.04, "1G uncapped high-salt": 0.03, "1G uncapped low-salt": -0.01}
{"position": "464", "domain": "none", "1G capped high-salt": 0.02, "1G capped low-salt": -0.14, "1G uncapped high-salt": 0.08, "1G uncapped low-salt": 0.00}
{"position": "465", "domain": "none", "1G capped high-salt": -0.04, "1G capped low-salt": -0.06, "1G uncapped high-salt": 0.09, "1G uncapped low-salt": 0.17}
{"position": "466", "domain": "none", "1G capped high-salt": 0.03, "1G capped low-salt": 0.00, "1G uncapped high-salt": 0.04, "1G uncapped low-salt": 0.10}
{"position": "467", "domain": "none", "1G capped high-salt": -0.01, "1G capped low-salt": 0.02, "1G uncapped high-salt": 0.12, "1G uncapped low-salt": -0.05}
{"position": "468", "domain": "none", "1G capped high-salt": 0.10, "1G capped low-salt": 0.03, "1G uncapped high-salt": 0.07, "1G uncapped low-salt": 0.03}
{"position": "469", "domain": "none", "1G capped high-salt": -0.12, "1G capped low-salt": -0.14, "1G uncapped high-salt": 0.05, "1G uncapped low-salt": 0.00}
{"position": "470", "domain": "none", "1G capped high-salt": 0.09, "1G capped low-salt": 0.01, "1G uncapped high-salt": 0.02, "1G uncapped low-salt": 0.02}
{"position": "471", "domain": "none", "1G capped high-salt": 0.06, "1G capped low-salt": -0.17, "1G uncapped high-salt": 0.00, "1G uncapped low-salt": -0.02}
{"position": "472", "domain": "none", "1G capped high-salt": 0.02, "1G capped low-salt": 0.00, "1G uncapped high-salt": 0.04, "1G uncapped low-salt": -0.01}
{"position": "473", "domain": "none", "1G capped high-salt": 0.07, "1G capped low-salt": -0.04, "1G uncapped high-salt": -0.05, "1G uncapped low-salt": 0.01}
{"position": "474", "domain": "none", "1G capped high-salt": -0.03, "1G capped low-salt": 0.00, "1G uncapped high-salt": 0.08, "1G uncapped low-salt": -0.03}
{"position": "475", "domain": "none", "1G capped high-salt": 0.03, "1G capped low-salt": 0.00, "1G uncapped high-salt": 0.11, "1G uncapped low-salt": 0.04}
{"position": "476", "domain": "none", "1G capped high-salt": -0.01, "1G capped low-salt": -0.07, "1G uncapped high-salt": 0.02, "1G uncapped low-salt": 0.00}
{"position": "477", "domain": "none", "1G capped high-salt": -0.14, "1G capped low-salt": -0.02, "1G uncapped high-salt": 0.03, "1G uncapped low-salt": -0.07}
{"position": "478", "domain": "none", "1G capped high-salt": -0.06, "1G capped low-salt": -0.01, "1G uncapped high-salt": 0.05, "1G uncapped low-salt": 0.02}
{"position": "479", "domain": "none", "1G capped high-salt": -0.14, "1G capped low-salt": 0.03, "1G uncapped high-salt": 0.04, "1G uncapped low-salt": 0.02}
{"position": "480", "domain": "none", "1G capped high-salt": -0.08, "1G capped low-salt": 0.05, "1G uncapped high-salt": 0.05, "1G uncapped low-salt": 0.08}
{"position": "481", "domain": "none", "1G capped high-salt": -0.23, "1G capped low-salt": 0.04, "1G uncapped high-salt": -0.12, "1G uncapped low-salt": -0.03}

The last 3 entries again:

* position 479: 1G capped high-salt -0.14; 1G capped low-salt 0.03; 1G uncapped high-salt 0.04; 1G uncapped low-salt 0.02
* position 480: 1G capped high-salt -0.08; 1G capped low-salt 0.05; 1G uncapped high-salt 0.05; 1G uncapped low-salt 0.08
* position 481: 1G capped high-salt -0.23; 1G capped low-salt 0.04; 1G uncapped high-salt -0.12; 1G uncapped low-salt -0.03